A mixed list of measured activities; the numbers were collected in NIAID ChemDB.

Common to all: tests in culture; species: HIV-1; measure: fold resistance

Blank or dashed fields: not listed here. Lines come from different laboratories, so protocols vary. a–b is a range or a potency band. Fold resistance: result on the changed form divided by that on wild type.

structure | cells | strain or isolate | changes | method | value
C=C(C)[C@@H]1CC[C@]2(C(=O)NCCCCCCCC(=O)N[C@@H](CC(C)C)[C@@H](O)CC(=O)O)CC[C@]3(C)[C@H](CC[C@@H]4[C@@]5(C)CC[C@H](O)C(C)(C)[C@@H]5CC[C@]43C)[C@@H]12 | HeLa P4 + HeLa | LAI-R(GP41-R22A) | R22A | syncytia | 1
Cc1c(OCC2CCC2)c2cc(F)ccc2[nH]c1=O | HeLa + HeLa-MAGI | NNRTI-resistant (RT V108I Y181C) | RT-V108I Y181C | β-galactosidase | >3.28
COCC1=C(C(=O)Nc2ccc(Cl)c(C(=O)OC(C)C)c2)SCCO1 | CEM | TIBO-resistant (RT L100I) | RT-L100I | syncytia | >14.3
CC(C)=CCOc1cc(NC(=S)c2ccsc2C)ccc1Cl | CEM + CEM-SS | NL4-3 | RT-A98G | p24 | 1.5
Nc1nc(NC2CC2)c2ncn([C@H]3C=C[C@@H](CO)C3)c2n1 | PBMC | XM-AZT-resistant | RT-M41L D67N K70R T215Y K219Q | p24 | 1
CCN1c2ncc(CCOc3ccc(/C=C/C(=O)O)c4ccccc34)cc2C(=O)Nc2c(C)ccnc21 | C8166 |  | RT-K103N Y181C | p24 | 1
Cc1ccc(C2CC2)c(-c2ccc3c(c2C)CCCO3)c1[C@H](OC(C)(C)C)C(=O)O | MT-4 | NL4-3 | PI-resistant ARP-11801 (L10F/G16A/L33F/K43T/L63P/A71V/V82A) | luminescence | 1
CCN1c2ncc(CCOc3ccc(/C=C(\C)C(=O)O)c4ccccc34)cc2C(=O)N(C)c2ccc(F)nc21 | C8166 |  | RT-K103N Y181C | p24 | 1
CN(C)C1=C(C#N)/C(=C2/C(C#N)=C(N(C)C)N(c3ccc([N+](=O)[O-])cc3)c3c2n(C)c2ccccc32)c2c(c3ccccc3n2C)N1c1ccc([N+](=O)[O-])cc1 | CEM + CEM-SS | N119 nevirapine-resistant (RT Y181C) | RT-Y181C | cytopathic effect / XTT | 1.23–12
CCCCCCCCCCCCCCCC(=O)Nc1ccn([C@H]2CC[C@@H](COP(=O)(O)O[C@H]3C[C@H](n4cc(C)c(=O)[nH]c4=O)O[C@@H]3CO)O2)c(=O)n1 | CEM + CEM-SS | AZT-resistant (RT D67N K70R T215Y K219Q) | RT-D67N K70R T215Y K219Q | cytopathic effect / XTT | 2.8
Cc1nnc(SCC(=O)Nc2ccccc2Br)n1-c1ccc(N(C)C)c2ccccc12 | HeLa + HeLa-JC53 | NL4-3 | RT-Y188L | luciferase | 600
CCCCCCCCCCCCCCCCCCOCCOP(=O)(O)CO[C@H](CO)Cn1cnc2c(N)ncnc21 | MT-2 | 4xAZT | RT-D67N K70R T215Y K219Q | p24 | 0.025
CCCC1=C(C(=O)Nc2ccc(Cl)c(C(=O)OCC)c2)SCCO1 | CEM | TSAO-resistant (RT E138K) | RT-E138K | syncytia | 24.7
CCN1c2ncc(CCOc3ccc(/C=C(\C)C(=O)O)c4ccccc34)cc2C(=O)N(C)c2cccnc21 | C8166 |  | RT-K103N Y181C | p24 | 1
CCCc1cc(=O)oc2c3c(c4c(c12)OC(C)(C)CC4)O[C@H](C)[C@@H](C)C3=O |  |  | RT-K101E | cytopathic effect / XTT | 18
Nc1nc(NC2CC2)c2ncn([C@H]3CO[C@@H](CO)O3)c2n1 | MT-2 | IIIB BCH-13520-resistant (RT V75I) | RT-V75I | RT activity | 3
C=C(C)[C@@H]1CC[C@]2(C(=O)NCCCCCCCC(=O)N[C@@H](CC(C)C)[C@@H](O)CC(=O)O)CC[C@]3(C)[C@H](CC[C@@H]4[C@@]5(C)CC[C@H](O)C(C)(C)[C@@H]5CC[C@]43C)[C@@H]12 | HeLa P4 + HeLa | LAI | GP41-K77R | syncytia | ~1
CC(C)C(OC(=O)c1cc(NC(=S)c2cccn2C)ccc1Cl)C(C)C | CEM + CEM-SS | CALO(RT-T139I) | RT-T139I | cytopathic effect / XTT | 6.67
CCc1c(Cc2cc(C)cc(C)c2)n(COCCO)c(=O)[nH]c1=O | CEM | IIIB | RT-Y181I | syncytia | 89.3
Nc1nc(=O)n([C@H]2C=C[C@@H](CO)O2)cc1F | PBMC | XM-T69SSS | RT-T69SSS L210W T215Y | p24 | 3.9
O=C1Nc2ccc(F)c(F)c2[C@@](/C=C/C2CC2)(C(F)(F)F)N1 |  |  | RT-P225H |  | <6.32
N#Cc1cc(Cl)cc(Oc2c(Br)ccc(CC(=O)Nc3ccc(S(N)(=O)=O)cc3Cl)c2F)c1 | MT-4 |  | V179F/Y181C |  | <1
Cc1cc(C)cc(S(=O)(=O)c2c(C(N)=O)[nH]c3c(Cl)cc(Cl)cc23)c1 | C8166 | IIIB | RT-K103N Y181C | p24 | >62.5
Cc1ccc2c(C)cccc2c1-n1c(C)nnc1SCC(=O)Nc1ccccc1Br | HeLa + HeLa-JC53 | NL4-3 | RT-Y188L | luciferase | 1100
CCN1c2nc(C(F)(F)F)ccc2NC(=O)c2cc(CCOc3cc[n+]([O-])c4ccccc34)cnc21 | C8166 |  | RT-K103N Y181C | p24 | 2.2
Cc1ccc(-n2c(C)nnc2SCC(=O)Nc2ccc(Cl)cc2)cc1 | HeLa + HeLa-JC53 | NL4-3 | RT-K103N Y181C | luciferase | >25
COC(=O)[C@H](C)NP(=O)(OC[C@@H]1C=C[C@H](n2cc(C)c(=O)[nH]c2=O)O1)Oc1ccc(OC)cc1 | PBMC | A17 | RT-Y181C | p24 | 30
CCN1C(=O)c2c(O)c(=O)c(C(=O)NCc3ccc(F)cc3F)cn2[C@H]2CCOC[C@H]21 | MT-2 |  | E138K/Q148K | luminescence | 3.5
CNc1ncnc2c1ncn2[C@@H]1O[C@H](CO)C[C@@H]1F | MT-2 | IIIB BCH-13520-resistant (RT K65R) | RT-K65R | RT activity | 15
CC(C)[C@H](NC(=O)OCc1ccccn1)C(=O)N[C@@H](Cc1ccccc1)[C@@H](O)C[C@H](Cc1ccccc1)NC(=O)OCc1cccnc1 | MT-4 | NL4-3 | PR-L10R L63P V82T | p24 | 3.75
CCC(=O)c1ccc(F)c([C@@H]2C[C@@H]2NC(=O)Nc2ccc(C#N)cn2)c1O | TZM-bl | LAI | NNRTI-resistant (RT Y188L) | β-galactosidase / luminescence | ≥100
CCCCCCCCCCCCCCCCOCCCOP(=O)(O)CO[C@H](CO)Cn1cnc2c(N)ncnc21 | MT-2 |  | RT-M184V | p24 | 0.43
COc1ccnc2[nH]cc(C(=O)C(=O)N3CCN(C(=O)c4ccccc4)C[C@H]3C)c12 | MT-2 | LAI(GP120-M426L) Recombinant | GP120-M426L | RT activity | 115.5
CCN1c2ncc(CCOc3ccc(CC(=O)NN)c4ccccc34)cc2C(=O)N(C)c2cccnc21 | C8166 |  | RT-K103N Y181C | p24 | 1
CC(C)=CCOc1cc(NC(=S)c2ccoc2C)ccc1Cl | CEM + CEM-SS | NL4-3 (RT K103N) | RT-K103N | cytopathic effect / XTT | 16.7
CCC(=O)Oc1ccc(NC(=O)C2=C(C)OCCS2)cc1C(=O)OC(C)C | CEM | TSAO-resistant (RT E138K) | RT-E138K | syncytia | >2.22
CCN1c2ncc(CCOc3ccc4cc(C(=O)NN)ccc4c3)cc2C(=O)N(C)c2cccnc21 | C8166 |  | RT-K103N Y181C | p24 | 1–10
Cc1ccc(-n2c(SCC(=O)Nc3ccc(S(N)(=O)=O)cc3Cl)nnc2C(F)(F)F)c2ccccc12 | HeLa + HeLa-JC53 | NL4-3 | RT-Y188L | luciferase | 62
Nc1nc2c(ncn2[C@H]2CO[C@@H](CO)O2)c(=O)[nH]1 | MT-2 |  | RT-K65R | cytopathic effect / XTT | 4
Cc1cc(C)cc(Cc2c(C(C)C)c(=O)[nH]c(=O)n2COCCO)c1 | CEM | IIIB | Nevirapine resistant (RT Y181C) | syncytia | 16.5
CCC1=C(C(=O)Nc2ccc(Cl)c(C(=O)OC(C)C)c2)SCCO1 | CEM | Nevirapine-resistant (RT V106A) | RT-V106A | syncytia | 150
Cc1nnc(C(=O)NC(C)(C)c2nc(C(=O)NCc3ccc(F)cc3)c(O)c(=O)n2C)o1 | CEM-GXR | NL4-3 | T97A E138K G140S Q148H | GFP | >1000
Cc1occc1C(=S)Nc1ccc(Cl)c(/C=N/OC(C)(C)C)c1 | CEM + CEM-SS | NL4-3 | RT-Y181C | cytopathic effect / XTT | 6.25
Nc1ncnc2c1ncn2[C@@H]1C=C[C@H](OCP(=O)(O)O)O1 | MT-2 |  | RT-M184V | cytopathic effect | 14
C[C@@H]1CCO[C@H]2Cn3cc(C(=O)NCc4ccc(F)cc4F)c(=O)c(O)c3C(=O)N12 | TZM-bl |  | I60M | luciferase / luminescence | 1
CCN1C(=O)c2c(O)c(=O)c(C(=O)NCc3c(F)cc(F)cc3F)cn2[C@H]2CCOC[C@H]21 | MT-2 |  | N155H/Q148R | luminescence | 2.2
COC(=O)[C@H](C)NP(=O)(OC[C@@H]1C=C[C@H](n2cc(C)c(=O)[nH]c2=O)O1)Oc1c(OC)cccc1OC | PBMC | RTMDR | RT M41L L74V T215Y V106N | p24 | 184
Cc1ccc2c(C)ccc(-n3c(C)nnc3SCC(=O)Nc3ccc(S(N)(=O)=O)cc3Cl)c2n1 | HeLa + HeLa-JC53 | NL4-3 | RT-Y188L | luciferase | 25
CCOCn1c(Sc2cc(C)cc(C)c2)c(CC)c(=O)[nH]c1=S | CEM | IIIB | RT-Y181C | syncytia | 30
Cc1ccc2cccc(C)c2c1-n1c(C)nnc1SCC(=O)Nc1ccccc1Br | HeLa + HeLa-JC53 | NL4-3 | RT-Y188L | luciferase | 480
CC=CCOc1cc(NC(=S)c2ccoc2C)ccc1OC | CEM + CEM-SS | NL4-3 | RT-Y181C | cytopathic effect / XTT | 46.7
CCN1c2ncc(CCOc3ccc(CC(C)C(=O)O)c4ccccc34)cc2C(=O)N(C)c2ccc(Cl)nc21 | C8166 |  | RT-K103N Y181C | p24 | 1
CCCC1=C(C(=O)Nc2ccc(Cl)c(C(=O)OC)c2)SCCO1 | CEM | PYR-resistant (RT Y181C) | RT-Y181C | syncytia | >13.3
O=C1Nc2ccc(Cl)cc2[C@@](/C=C/C2CC2)(C(F)(F)F)N1 |  |  | RT-K103N Y181C |  | 60
Cc1occc1C(=S)Nc1ccc(Cl)c(C(=O)OCC2CC2)c1 | CEM + CEM-SS | NL4-3 | RT-V106A | cytopathic effect / XTT | 22
CCN1c2ncc(CCOc3ccc(CCC(=O)O)c4ccccc34)cc2C(=O)N(C)c2ccc(F)nc21 | C8166 |  | RT-K103N Y181C | p24 | 1
FC(F)(Sc1ncccn1)c1nc2ccccc2o1 |  | CALO | RT-T139I |  | 1
C[C@H]1CO[C@@H]2Cn3cc(C(=O)NCc4ccc(F)cc4F)c(=O)c(O)c3C(=O)N12 | CBMC | NL4-3 | R263K | RT activity | 2.5
Nc1ncnc2c1ncn2[C@@H]1O[C@H](CO)C=C1F | MT-2 |  | K65R |  | 2.2
CCN1c2ncc(CCOc3ccc(/C=C(\C)C(=O)O)c4ccccc34)cc2C(=O)Nc2c(C)cc(Cl)nc21 | C8166 |  | RT-K103N Y181C | p24 | 1–10
CCOCn1c(Sc2ccccc2)c(CC)c(=O)[nH]c1=O | CEM | IIIB | RT-E138K | syncytia | 21.7
CCN1C(=O)c2c(O)c(=O)c(C(=O)NCc3ccc(F)c(Cl)c3F)cn2[C@H]2CCOC[C@H]21 | MT-2 |  | E138K/Q148K | luminescence | 1.5
Cc1ccc(-n2c(C)nnc2SCC(=O)Nc2ccccc2Br)c2ccccc12 | HeLa + HeLa-JC53 | NL4-3 | RT-K103N Y181C | luciferase | 23
Cc1occc1C(=S)Nc1ccc(Cl)c(C(=O)OC(C)C)c1 | CEM + CEM-SS | 4xAZT/L100I(RT-D67N K70R T215Y K219Q L100I) | RT-D67N K70R L100I T215Y K219Q | cytopathic effect / XTT | 30
CC(C)=CCOc1cc(NC(=S)c2ccsc2C)ccc1Cl | CEM + CEM-SS | Diphenyl sulfone-resistant (RT-Y181C) | RT-Y181C | cytopathic effect / XTT | 25
C=CCO/N=C/c1cc(NC(=S)c2ccoc2C)ccc1Cl | CEM + CEM-SS | NL4-3 | RT-V106A | cytopathic effect / XTT | 114
COC(=O)[C@H](C)NP(=O)(OC[C@@H]1C=C[C@H](n2cc(C)c(=O)[nH]c2=O)O1)Oc1ccc(Br)cc1Cl | PBMC | RTMDR | RT M41L L74V T215Y V106N | p24 | 234
Cc1ccnc(SC(F)(F)c2nc3ccccc3o2)n1 |  | Calanolide-resistant (RT T139I) | RT-T139I |  | 6.65
CCOCn1c(Sc2ccccc2)c(C(C)C)c(=O)[nH]c1=S | CEM | IIIB | Nevirapine resistant (RT Y181C) | syncytia | 17.8
CC1=C(C(=O)Nc2cc(Cl)cc(C(=O)OC(C)C)c2)SCCO1 | CEM | Nevirapine-resistant (RT V106A) | RT-V106A | syncytia | 1

5 of the rows above, restated:

structure | cells | strain or isolate | changes | method | value
Cc1ccc2c(C)cccc2c1-n1c(C)nnc1SCC(=O)Nc1ccccc1Br | HeLa + HeLa-JC53 | NL4-3 | RT-Y188L | luciferase | 1100
Nc1nc(=O)n([C@H]2C=C[C@@H](CO)O2)cc1F | PBMC | XM-T69SSS | RT-T69SSS L210W T215Y | p24 | 3.9
CN(C)C1=C(C#N)/C(=C2/C(C#N)=C(N(C)C)N(c3ccc([N+](=O)[O-])cc3)c3c2n(C)c2ccccc32)c2c(c3ccccc3n2C)N1c1ccc([N+](=O)[O-])cc1 | CEM + CEM-SS | N119 nevirapine-resistant (RT Y181C) | RT-Y181C | cytopathic effect / XTT | 1.23–12
FC(F)(Sc1ncccn1)c1nc2ccccc2o1 |  | CALO | RT-T139I |  | 1
CCN1c2ncc(CCOc3ccc4cc(C(=O)NN)ccc4c3)cc2C(=O)N(C)c2cccnc21 | C8166 |  | RT-K103N Y181C | p24 | 1–10